Laboratory results published in patent US20100203559A1 (published 2010).

B1: α-SNAP-25 monoclonal antibody 1D3B8 (antibody, V domains shown)
VH: QVKLQESGAELVKPGASVKISCKASGYIFTDHALHWVRQKPEQGLEWIGYIFPGNGNIEYNEKFKGKATLTADKSSSTAYMQLNSLTSGDSAMYFCKKMDYWGQGTTVTVSS
VL: DVLMTQTPLSLPVSLGDQASISCRSSQSIVHSNGNTYLEWYLQKPGQSPKLLIYKVSNRFSGVPDRFSGSGSGTDFTLKISRVEAEDLGVYYCFQGSHVPPTFGAGTKLELKR
B2: α-SNAP-25 monoclonal antibody 2E2A6 (antibody, V domains shown)
VH: QVQLQQSDAELVKPGASVKISCRASGYTFTDHSIHWVKQQPGQGLEWIGYIFPGNGNIEYNDKFKGKATLTADKSSGTAYMQLNSLTSEDSAVYFCKRMGYWGQGTSVTVSS
VL: DVLMTQTPLTLSVTIGQPASISCKSSQSLLYTNGKTYLTWLFQRPGQSPKRLIYLVSELDSGVPDRFSGSGSGTDFTLEITRVEAEDLGVYYCLQSAHFPFTFGSGTKLEIKR
B3: α-SNAP-25 monoclonal antibody 3C1A5 (antibody, V domains shown)
VH: QVKLQESGAELVKPGASVKISCKASGYTFTDHSIHWVKQKPGQGLEWIGYLFPGNGNFEYNEKFKGKATLTADKSSSTVYMYLNSLTSEDSAVYFCKRMGYWGQGTTVTVSS
VL: B2 VL with L3V, Y31N, F42I, K50Q, E58K, E79K, T81S, A97S

Molecular target: SNAP-25134-206 peptide (human)
Assay: SPR (BIAcore 3000), peptide on CM5 chip, antibody as analyte

Row | Binder | binding result
1 | B1 | no binding (tested: 125 nM)
2 | B2 | no binding (tested: 10 µM)
3 | B3 | no binding (tested: 100 nM)

Residue numbers refer to the chain shown, from its start.
